Anti-infective test results gathered from many reports (values: NIAID ChemDB through PubChem).

All rows: whole-cell or culture tests; agent: Candida albicans; measure: MIC

a–b is a range or a potency band. Lines come from different laboratories, so protocols vary. An empty or dashed field is not shown.

structure	strain	method	setting	value
OC(c1cc(-c2ccc(-c3ccccc3)cc2)nc2ccccc12)C1CCCCN1	ATCC 90028	-	-	3.1 µg/mL
CO[C@@H](n1cncn1)[C@](O)(Cn1cncn1)c1ccc(F)cc1F	-	-	-	>100 µg/mL
Cc1c(S(=O)(=O)c2ccccc2)[n+](=O)c2ccccc2n1[O-]	Clinical isolate 20	-	-	15.6 µg/mL
O=c1c2ccccc2cnn1Cc1n[nH]c(=S)n1CCc1ccccc1	ATCC 10231	-	-	32 µg/mL
Fc1ccc(CN(CCn2cncn2)CCn2cncn2)c(F)c1	ATCC 76615	visual reading / absorbance	-	64 µg/mL
O=c1c2ccccc2cnn1CCc1nnc(Nc2ccccc2)s1	ATCC 10231	-	-	128 µg/mL
C[C@@H]1Oc2ccccc2/C(=N/OCc2ccccc2)[C@H]1n1ccnc1	ATCC 10231	-	-	1 µg/mL
Cc1nn(-c2ccccc2)c2c1C(c1ccc(Cl)cc1)C(C#N)=C(N)O2	MTCC 227	-	-	1000 µg/mL
O=c1c2ccccc2cnn1Cc1n[nH]c(=S)n1Cc1ccccc1	ATCC 10231	-	-	128 µg/mL
COC(=O)c1ccc(N2C(=O)C(OC(C)=O)C2c2ccc(C)cc2)cc1	SH/T54	-	-	142 µM
Cc1nn(-c2ccccc2)c2c1C(c1ccc(F)cc1)c1c(nc(=S)[nH]c1N)O2	MTCC 227	-	-	150 µg/mL
Cc1ccc(N2C(=O)[C@@H](O)[C@H]2/C=C/c2ccccc2)cc1	SH/T54	-	-	44.8 µM
CC1=CC[C@H]2C[C@@H]1C2(C)C.C[C@@H]1[C@H](O)[C@@H](C)/C=C/C=C/C=C/C=C/C=C/C=C/C=C/[C@H](O[C@@H]2O[C@H](C)[C@@H](O)[C@H](N)[C@@H]2O)C[C@@H]2O[C@](O)(C[C@@H](O)C[C@@H](O)[C@H](O)CC[C@@H](O)C[C@@H](O)CC(=O)O[C@H]1C)C[C@H](O)[C@H]2C(=O)O	ATCC 10231	broth dilution	-	390 µg/mL
C[C@@H](SC1COC(/C=C/C=C/c2ccc(C#N)cc2F)OC1)[C@](O)(Cn1cncn1)c1ccc(F)cc1F	CAL-0008	-	-	0.5 µg/mL
O=C(Cc1nnc2n1-c1nc3ccccc3nc1NN2)NNC(=S)Nc1ccccc1	ATCC 2091	-	-	25 µg/mL
c1ccc(-c2csc(NN=C3CCCC3)n2)cc1	-	-	-	3.12 µg/mL
CC(C)c1nc2ccccc2[nH]c1=O	-	-	-	>200 µM
CCC(C)CC(C)CCCCCCCCC(=O)N[C@@H]1C[C@@H](O)[C@@H](O)NC(=O)[C@@H]2[C@@H](O)CCN2C(=O)[C@H]([C@@H](O)CCN)NC(=O)[C@H]([C@H](O)[C@@H](O)c2ccc(O)cc2)NC(=O)[C@@H]2C[C@@H](O)CN2C(=O)[C@H]([C@H](C)O)NC1=O	-	-	-	≤0.06 µg/mL
CC(=O)/C=C1\Sc2ccccc2N1/C1=C/CCCCCCCCCC1	ATCC 10231	-	-	≥100 µg/mL
Cc1nnsc1C(=O)NNC(=S)Nc1ccc(F)cc1	ATCC 10231	agar	-	>400 µg/mL
COc1ccc2c(c1)S/C(=C\C(=O)C(C)C)N2C1=CCCCCC1	ATCC 14053	-	-	>100 µg/mL
O=C(NNC(=S)Nc1ccc(F)cc1)c1cc2ccccc2[nH]1	ATCC 10231	agar	-	>400 µg/mL
CS[C@@H](n1cncn1)[C@](O)(Cn1cncn1)c1ccc(F)cc1F	-	-	-	>100 µg/mL
Clc1ccc(/C(Cn2ccnc2)=N\Nc2c(Cl)cccc2Cl)s1	GB	-	-	6.2 µg/mL
COc1ccc2[nH]c(=O)c(CBr)nc2c1Cl	-	-	-	>200 µM
CC(n1ccn(-c2ccc(-n3ccnc3)cc2)c1=O)C(O)(Cn1cncn1)c1ccc(F)cc1F	TA	-	-	0.004 µg/mL
CC1=CC[C@@H]2[C@H](C1)C2(C)C	D5	-	-	0.08–0.16 µg/mL
Cc1nn(-c2ccccc2)c2c1C(c1ccccc1)C(C#N)=C(N)O2	MTCC 227	-	-	500 µg/mL
O=C(CCn1ccnc1)c1cccc(O)c1	RTCC1024	broth dilution	-	64 µg/mL
N/C(=N/N=C1CCCCCC1)SCc1cccc(Cl)c1	-	-	-	>200 µg/mL
CC1S[C@H](c2ccc(Cl)cc2)N(c2nc(N3CCOCC3)n[nH]2)C1=O	A39	broth dilution	-	>100 µg/mL
COc1ccc(OC)c(C(=O)CN2C(=O)S/C(=C\c3ccc(-c4cc(=O)c5ccccc5o4)cc3)C2=O)c1	-	-	-	25 µg/mL
CCCSc1ccc2nc(NC(=O)OC)[nH]c2c1	92-1729	-	24 h	5 µg/mL
O=c1c2ccccc2cnn1Cc1nnc(NCCc2ccccc2)s1	ATCC 10231	-	-	32 µg/mL
COc1ccc2ncc(=O)[nH]c2c1Cl	-	-	-	>200 µM
CN[C@@H]1[C@H](O[C@@H]2O[C@H](CO)[C@@H](O)[C@H](S(=O)(=O)O)[C@H]2O)[C@@H](O)[C@H](O[C@H]2c3cc(C)c(C(=O)N[C@H](CO)C(=O)O)c(O)c3-c3c(cc4c(c3O)C(=O)c3cc(OC)cc(O)c3C4=O)[C@@H]2O)O[C@@H]1C	ATCC 38247	-	-	6.3 µg/mL
OC(c1cc(C2CC3CCC2CC3)nc2c(Cl)cc(Cl)cc12)C1CCCCN1	ATCC 90028	-	-	1.5 µg/mL
Cc1c(S(=O)(=O)c2ccccc2)[n+](=O)c2cc(Cl)ccc2n1[O-]	Clinical isolate 19	-	-	62.5 µg/mL
CC(C)(O)c1cn(-c2ccc(Cl)cc2)nn1	URM 4385	broth dilution	-	128 µg/mL
CCCCC/C=C\C/C=C\CCCCCCCC(=O)N[C@H]1C[C@@H](O)[C@@H](O)NC(=O)[C@@H]2[C@@H](O)[C@@H](C)CN2C(=O)[C@H]([C@H](C)O)NC(=O)[C@H]([C@H](O)[C@@H](O)c2ccc(O)cc2)NC(=O)[C@@H]2C[C@@H](O)CN2C(=O)[C@H]([C@H](C)O)NC1=O	-	-	-	0.625 µg/mL
CC(=O)OC1C(=O)N2CCCS(=O)C12c1ccccc1	SH/T54	-	-	20.47 µM
O=C(CCn1ccnc1)c1cccc(C(O)c2ccc(Cl)cc2)c1	RTCC 1003	broth dilution	-	64 µg/mL
CN(CCCC#CC(C)(C)C)c1cccc2c1CCC(=O)N2	Clinical isolate 10	-	-	31.25 µg/mL
C[C@H]1[C@H](O)[C@@H](C)/C=C/C=C/C=C/C=C/C=C/C=C/C=C/[C@H](O[C@@H]2O[C@H](C)[C@@H](O)[C@H](N)[C@@H]2O)C[C@@H]2O[C@](O)(C[C@@H](O)C[C@@H](O)CC[C@H](O)[C@@H](O)C[C@@H](O)CC(=O)O[C@H]1C)C[C@H](O)[C@H]2C(=O)O	ATCC 90018	-	-	0.5 µg/mL
O=[n+]1c(Sc2ccccc2)c(CBr)n([O-])c2ccccc21	Clinical isolate 2	-	-	15.6 µg/mL
O[C@](Cn1cncn1)(c1ccc(F)cc1F)[C@@H](OCC(F)(F)F)n1cncn1	-	-	-	>100 µg/mL
N/C(=N/N=C1CCCCCCC1)SCc1ccc(Cl)cc1Cl	-	-	-	>200 µg/mL
COc1ccc(C(=O)CN2C(=O)S/C(=C\c3ccc(-c4cc(=O)c5ccccc5o4)cc3)C2=O)cc1	-	-	-	25 µg/mL
CCCCCCCCOc1ccc(C(=O)NC2C[C@@H](O)[C@@H](O)NC(=O)C3[C@@H](O)[C@@H](C)CN3C(=O)C(C(C)O)NC(=O)C([C@H](O)[C@@H](O)c3ccc(O)cc3)NC(=O)C3C[C@@H](O)CN3C(=O)C(C(C)O)NC2=O)cc1	-	-	-	0.62 µg/mL
O=C(NNC(=S)Nc1ccc(F)cc1)c1cccs1	ATCC 90028	agar	-	200 µg/mL
C[C@@H]1Oc2ccccc2/C(=N/OCc2ccc(F)cc2)[C@H]1n1ccnc1	ATCC 10231	-	-	8 µg/mL
CN1CCN(c2n[nH]c(N3C(=O)CS[C@@H]3c3ccccc3)n2)CC1	A39	broth dilution	-	10 µg/mL
Cc1nnsc1C(=O)NNC(=S)Nc1ccc([N+](=O)[O-])cc1	ATCC 10231	agar	-	100 µg/mL
Cc1ccc2c(c1)c1nnc(N3CCN(C)CC3)nc1n2C	C316	-	-	2 µg/mL
CCC(C)CC(C)CCCCCCCCC(=O)NC1C[C@H](O)[C@@H](O)NC(=O)[C@@H]2[C@@H](O)[C@@H](C)CN2C(=O)[C@H]([C@H](O)CC(N)=O)NC(=O)[C@H](C(O)[C@H](O)c2ccc(O)cc2)NC(=O)[C@@H]2C[C@@H](O)CN2C(=O)[C@H]([C@@H](C)O)NC1=O	-	-	-	0.12–2 µg/mL
Cc1ccc([C@H]2SCC(=O)N2c2nc(N3CCOCC3)n[nH]2)cc1	A39	broth dilution	-	12.5 µg/mL
CC(n1ccn(-c2ccc(-n3ccnn3)cc2)c1=O)C(O)(Cn1cncn1)c1ccc(F)cc1F	TA	-	-	<0.008 µg/mL
Clc1ccccc1C(c1ccccc1)(c1ccccc1)n1ccnc1	ATCC 2091	-	-	12.5 µg/mL
O=c1[nH]c2ccc(Cl)c(Cl)c2nc1CBr	-	-	-	>200 µM
Cc1c(O)cccc1C(=O)N[C@@H](CSc1ccccc1)[C@H](O)CN1C[C@H]2CCCC[C@H]2C[C@H]1C(=O)NC(C)(C)C	I129A	-	-	64 µg/mL
CSc1ccccc1NC1CCCCCCCCCCC1.CSc1ccccc1NC1CCCCCCCCCCC1	ATCC 10231	-	-	>100 µg/mL
Cc1ccc(-n2c(CCn3ncc4ccccc4c3=O)n[nH]c2=S)cc1	ATCC 10231	-	-	512 µg/mL
Cc1ccc2c(c1)c1nnc(N3CC[N+](C)([O-])CC3)nc1n2C	2402E	-	-	>125 µg/mL
Cc1nn(-c2ccccc2)c2c1C(c1cccc(Br)c1)c1c(nc(=O)[nH]c1N)O2	MTCC 227	-	-	250 µg/mL
C[C@@H]1Oc2ccccc2/C(=N/OCc2c(Cl)cccc2Cl)[C@H]1n1ccnc1	ATCC 10231	-	-	64 µg/mL
COc1ccc(Nc2nnc(CCn3ncc4ccccc4c3=O)s2)cc1	ATCC 10231	-	-	128 µg/mL
CC(=O)O[C@@H]1C(=O)N(c2ccc(C(=O)O)cc2)[C@H]1c1ccccc1	SH/T54	-	-	76.91 µM
CCO[C@@H](n1cncn1)[C@@](O)(Cn1cncn1)c1ccc(Cl)cc1Cl	-	-	-	>100 µg/mL
NS(=O)(=O)c1ccc(C2C=C(c3ccc(Br)cc3)CC2c2ccccc2)cc1	ATCC 2091	-	-	200 µg/mL
C[C@@H]1Oc2cc(Cl)ccc2/C(=N/OCc2ccccc2)[C@H]1n1ccnc1	ATCC 10231	-	-	0.25 µg/mL
CCC(=O)/C=C1\Sc2ccccc2N1C1CCCCCC1	ATCC 10231	-	-	50 µg/mL
N/C(=N/N=C1CCCCCCC1)SCc1ccccc1Cl	-	-	-	>200 µg/mL
NS(=O)(=O)c1ccc(C2C=C(c3ccc(Br)cc3)C(Br)C2c2ccccc2)cc1	ATCC 2091	-	-	50 µg/mL
CC(=O)OC1C(=O)N2CCCS(=O)(=O)C12c1ccccc1	SH/T54	-	-	19.41 µM
N/C(=N/N=C1CCCCCC1)SCc1ccccc1	-	-	-	>200 µg/mL
C[C@@H]1Oc2ccccc2/C(=N/OCc2ccc(Cl)c(Cl)c2)[C@H]1n1ccnc1	ATCC 10231	-	-	8 µg/mL
CC(N1CCN(c2ccc(-n3cncn3)cc2)C1=O)C(O)(Cn1cncn1)c1ccc(F)cc1F	TIMM1756	-	-	0.002 µg/mL
CO[C@@H](n1cncn1)[C@@](O)(Cn1cncn1)c1ccc(Cl)cc1Cl	-	-	-	>100 µg/mL
Cc1nc(-c2ccc(-n3ccn(C(C)C(O)(Cn4cncn4)c4ccc(F)cc4F)c3=O)cc2)co1	TA	-	-	≤0.001 µg/mL
OC(CCn1ccnc1)c1cccc(C(O)c2ccc(Cl)cc2)c1	RTCC 1003	broth dilution	-	>64 µg/mL
Nc1[nH]c(=O)ncc1F	ATCC 90028	broth dilution	-	1 µg/mL
CC(N1CCN(c2ccc(-n3ccnn3)cc2)C1=O)C(O)(Cn1cncn1)c1ccc(F)cc1F	TA	-	-	0.008 µg/mL

For reference, 12 entries again:

{"structure": "Cc1nn(-c2ccccc2)c2c1C(c1ccc(F)cc1)c1c(nc(=S)[nH]c1N)O2", "strain": "MTCC 227", "value": "150 µg/mL"}
{"structure": "CCCSc1ccc2nc(NC(=O)OC)[nH]c2c1", "strain": "92-1729", "setting": "24 h", "value": "5 µg/mL"}
{"structure": "Clc1ccccc1C(c1ccccc1)(c1ccccc1)n1ccnc1", "strain": "ATCC 2091", "value": "12.5 µg/mL"}
{"structure": "C[C@@H](SC1COC(/C=C/C=C/c2ccc(C#N)cc2F)OC1)[C@](O)(Cn1cncn1)c1ccc(F)cc1F", "strain": "CAL-0008", "value": "0.5 µg/mL"}
{"structure": "C[C@@H]1Oc2ccccc2/C(=N/OCc2ccc(Cl)c(Cl)c2)[C@H]1n1ccnc1", "strain": "ATCC 10231", "value": "8 µg/mL"}
{"structure": "C[C@H]1[C@H](O)[C@@H](C)/C=C/C=C/C=C/C=C/C=C/C=C/C=C/[C@H](O[C@@H]2O[C@H](C)[C@@H](O)[C@H](N)[C@@H]2O)C[C@@H]2O[C@](O)(C[C@@H](O)C[C@@H](O)CC[C@H](O)[C@@H](O)C[C@@H](O)CC(=O)O[C@H]1C)C[C@H](O)[C@H]2C(=O)O", "strain": "ATCC 90018", "value": "0.5 µg/mL"}
{"structure": "COC(=O)c1ccc(N2C(=O)C(OC(C)=O)C2c2ccc(C)cc2)cc1", "strain": "SH/T54", "value": "142 µM"}
{"structure": "O[C@](Cn1cncn1)(c1ccc(F)cc1F)[C@@H](OCC(F)(F)F)n1cncn1", "value": ">100 µg/mL"}
{"structure": "O=C(CCn1ccnc1)c1cccc(O)c1", "strain": "RTCC1024", "method": "broth dilution", "value": "64 µg/mL"}
{"structure": "Cc1ccc(-n2c(CCn3ncc4ccccc4c3=O)n[nH]c2=S)cc1", "strain": "ATCC 10231", "value": "512 µg/mL"}
{"structure": "O=c1c2ccccc2cnn1Cc1n[nH]c(=S)n1Cc1ccccc1", "strain": "ATCC 10231", "value": "128 µg/mL"}
{"structure": "NS(=O)(=O)c1ccc(C2C=C(c3ccc(Br)cc3)CC2c2ccccc2)cc1", "strain": "ATCC 2091", "value": "200 µg/mL"}